In-gel DMS probing of monomeric and dimeric HIV-1 RNA

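Mutant RNA libraries with 1G, 2G or 3G starts, with or without cap, were folded at 37 °C for 30 min. Monomer and dimer bands were cut from native gels after folding in high salt (300 mM KCl, 5 mM MgCl2) or low salt (40 mM KCl, 0.1 mM MgCl2). Each band was probed in the gel with DMS (170 mM, 15 min, 37 °C), with ethanol as control, and sequenced.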

The 5' region of HIV-1 NL4-3 RNA (positions 1-437):
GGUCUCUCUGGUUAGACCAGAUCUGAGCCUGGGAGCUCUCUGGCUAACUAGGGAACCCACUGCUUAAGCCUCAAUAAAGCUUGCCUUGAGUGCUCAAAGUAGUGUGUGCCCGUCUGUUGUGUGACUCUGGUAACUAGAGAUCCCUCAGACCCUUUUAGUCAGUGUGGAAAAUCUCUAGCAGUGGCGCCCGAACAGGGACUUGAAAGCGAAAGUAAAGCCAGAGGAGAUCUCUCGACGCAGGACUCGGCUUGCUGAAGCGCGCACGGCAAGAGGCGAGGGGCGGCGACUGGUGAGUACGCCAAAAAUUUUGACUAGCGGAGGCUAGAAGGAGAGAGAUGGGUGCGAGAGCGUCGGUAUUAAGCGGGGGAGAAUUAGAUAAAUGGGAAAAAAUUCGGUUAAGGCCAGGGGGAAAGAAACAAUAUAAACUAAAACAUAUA

Values are winsor-normalised DMS reactivities of A and C; higher means more reactive, usually unpaired. One numbering serves 1G, 2G and 3G. A position is written with its base.

A271 (domain SL1): 3G uncapped low-salt monomer 0.50; 3G capped high-salt dimer 0.49; 2G capped high-salt monomer 0.54.
C274 (domain SL1): 3G uncapped low-salt monomer 0.82; 3G capped high-salt dimer 0.25; 2G capped high-salt monomer 0.60.
A276 (domain SL1): 3G uncapped low-salt monomer 1.19; 3G capped high-salt dimer 0.36; 2G capped high-salt monomer 0.96.
C281: 3G uncapped low-salt monomer 0.36; 3G capped high-salt dimer 0.40; 2G capped high-salt monomer 0.41.
C284 (domain SL2): 3G uncapped low-salt monomer 0.20; 3G capped high-salt dimer 0.16; 2G capped high-salt monomer 0.22.
A286 (domain SL2): 3G uncapped low-salt monomer 0.52; 3G capped high-salt dimer 0.60; 2G capped high-salt monomer 0.55.
C287 (domain SL2): 3G uncapped low-salt monomer 0.31; 3G capped high-salt dimer 0.46; 2G capped high-salt monomer 0.33.
A293 (domain SL2): 3G uncapped low-salt monomer 0.73; 3G capped high-salt dimer 0.84; 2G capped high-salt monomer 0.77.
A296 (domain SL2): 3G uncapped low-salt monomer 0.63; 3G capped high-salt dimer 0.57; 2G capped high-salt monomer 0.62.
C297 (domain SL2): 3G uncapped low-salt monomer 0.19; 3G capped high-salt dimer 0.14; 2G capped high-salt monomer 0.18.
C299 (domain SL2): 3G uncapped low-salt monomer 0.06; 3G capped high-salt dimer 0.09; 2G capped high-salt monomer 0.08.
C300: 3G uncapped low-salt monomer 0.05; 3G capped high-salt dimer 0.07; 2G capped high-salt monomer 0.06.
A301: 3G uncapped low-salt monomer 0.27; 3G capped high-salt dimer 0.27; 2G capped high-salt monomer 0.26.
A302: 3G uncapped low-salt monomer 1.27; 3G capped high-salt dimer 1.18; 2G capped high-salt monomer 1.17.
A303: 3G uncapped low-salt monomer 0.07; 3G capped high-salt dimer 0.07; 2G capped high-salt monomer 0.07.
A304: 3G uncapped low-salt monomer 0.15; 3G capped high-salt dimer 0.14; 2G capped high-salt monomer 0.15.
A305: 3G uncapped low-salt monomer 0.75; 3G capped high-salt dimer 0.68; 2G capped high-salt monomer 0.75.
A311: 3G uncapped low-salt monomer 1.19; 3G capped high-salt dimer 1.24; 2G capped high-salt monomer 1.19.
C312 (domain SL3): 3G uncapped low-salt monomer 0.12; 3G capped high-salt dimer 0.08; 2G capped high-salt monomer 0.11.
A314 (domain SL3): 3G uncapped low-salt monomer 0.04; 3G capped high-salt dimer 0.03; 2G capped high-salt monomer 0.04.
C316 (domain SL3): 3G uncapped low-salt monomer 0.14; 3G capped high-salt dimer 0.05; 2G capped high-salt monomer 0.12.
A319 (domain SL3): 3G uncapped low-salt monomer 0.87; 3G capped high-salt dimer 0.87; 2G capped high-salt monomer 0.87.
C322 (domain SL3): 3G uncapped low-salt monomer 0.03; 3G capped high-salt dimer 0.03; 2G capped high-salt monomer 0.03.
A324 (domain SL3): 3G uncapped low-salt monomer 0.12; 3G capped high-salt dimer 0.09; 2G capped high-salt monomer 0.13.
A326: 3G uncapped low-salt monomer 0.86; 3G capped high-salt dimer 0.91; 2G capped high-salt monomer 0.88.
A327: 3G uncapped low-salt monomer 1.00; 3G capped high-salt dimer 1.05; 2G capped high-salt monomer 1.01.
A330: 3G uncapped low-salt monomer 0.96; 3G capped high-salt dimer 0.80; 2G capped high-salt monomer 0.96.

A selection of 2 entries from above:

position,domain,3G uncapped low-salt monomer,3G capped high-salt dimer,2G capped high-salt monomer
A319,SL3,0.87,0.87,0.87
C287,SL2,0.31,0.46,0.33

Reference: Ye et al. 2022, doi:10.1038/s41594-022-00746-2.